Compound potency records, mixed from different reports. Data source: NIAID ChemDB in PubChem.

Shared fields: host cell toxicity; cell line: HFF; endpoint: CC50

Rows are shuffled and stem from different studies. CCn: concentration that lowers growth or viability of the cells by n%.

compound	result
O[C@@H]1[C@H](O)CO[C@H]1n1c(Br)nc2cc(Cl)c(Cl)cc21	32 µM
Nc1ncnc2c1ncn2/C=C1\[C@H](CO)C1(F)F	>100 µM
OC[C@H]1O[C@@H](c2cc(Br)nc3cc(Cl)c(Cl)cc23)C(O)C1O	>100 µM
COC(c1cn([C@H]2C[C@H](O)[C@@H](CO)O2)c(=O)[nH]c1=O)C(Cl)I	>214 µM
CC(N=[N+]=[N-])c1cn([C@H]2C[C@H](O)[C@@H](CO)O2)c(=O)[nH]c1=O	>250 µM
COc1ncnc2c1ccn2COCCO	100 µM
[N-]=[N+]=NC(CI)c1cn([C@H]2C[C@H](O)[C@@H](CO)O2)c(=O)[nH]c1=O	>118 µM
CC(=O)OCC(CO)OCn1cnc2c(=O)[nH]c(N)nc21	>70 µg/mL
CC(C)Nc1c(C=O)c2cc(Cl)c(Cl)cc2n1[C@@H]1O[C@H](CO)[C@@H](O)[C@H]1O	3.2 µM
O=c1ccn([C@@]23C[C@H](O)[C@@H](CO)[C@@H]2C3)c(=O)[nH]1	>100 µg/mL
CCCCCCCCCCCCCCCCOCCCOP(=O)(O)CCCOCn1cnc2c(NC3CC3)nc(N)nc21	>300 µM
OC[C@H]1O[C@@H](n2c(Br)nc3cc(Cl)c(Cl)cc32)[C@H](O)[C@@H]1O	118 µM
CCCCCCCCCCCCCCCCCCO[C@H]1O[C@H](COP(=O)(O)C(=O)O)[C@@H](O)[C@H](O)[C@H]1O	166 µM
Nc1ncc2ncn(/C=C3/CC3(CO)CO)c2n1	>300 µM
CNC(=O)c1ccc(Oc2ccc(Cl)cc2O)o1	>10 µM
COc1c(C#N)c2cc(Cl)c(Cl)cc2n1[C@@H]1O[C@H](CO)[C@@H](O)[C@H]1O	100 µM
CCCSc1nc(N)nc2c1ncn2/C=C1/C[C@@H]1CO	>343 µM
Cc1nc(-c2ncn([C@@H]3O[C@H](CO)[C@@H](O)[C@H]3O)c2C(N)=O)no1	>100 µM
CCCCCCCCCCCCOCCCOP(=O)(O)CO[C@H](CO)Cn1ccc(N)nc1=O	>190 µM
CCc1cn([C@H]2C[C@H](O)[C@@H](CO)O2)c(=O)[nH]c1=O	81 µM
CCCCCCCCCCCCCCCCOCCCOP(=O)(O)CCCOCn1cnc2c(N)nc(N)nc21	54.3 µM
CCCCCOc1nc(N)nc2c1ncn2/C=C1/C[C@@H]1CO	178 µM
O=c1[nH]c(=O)n([C@H]2C[C@H](O)[C@@H](CO)O2)cc1C(O)C(Cl)I	>231 µM
Nc1nc(NC2CC2)c2ncn(/C=C3/C[C@@H]3CO)c2n1	>367 µM
Nc1nc2c(ncn2[C@H]2C[C@]23C[C@H]3CO)c(=O)[nH]1	>100 µM
CC(C)[C@H](N)C(=O)N[C@H](C(=O)OCC(COC(=O)[C@@H](NC(=O)[C@@H](N)C(C)C)C(C)C)OCn1cnc2c(=O)[nH]c(N)nc21)C(C)C	≥113 µM
O=c1[nH]c(=O)n([C@H]2C[C@H](O)[C@@H](CO)O2)cc1C(O)C(Br)Br	>232 µM
COC(=O)C(C)NP(=O)(OC[C@@H]1C/C1=C\n1cc(N)c(=O)[nH]c1=O)Oc1ccccc1	>300 µM
CC(C)[C@H](N)C(=O)NCC(=O)OCC(COC(=O)CNC(=O)[C@@H](N)C(C)C)OCn1cnc2c(=O)[nH]c(N)nc21	≥126 µM
Nc1nc(NCC2CC2)c2ncn(/C=C3/C[C@@H]3CO)c2n1	>349 µM
Nc1nc2c(ncn2COCCO)c(=O)[nH]1	>444 µM
CC(=O)n1c(Cl)c([C@@H]2O[C@H](CO)[C@@H](O)[C@H]2O)c2cc(Cl)c(Cl)cc21	>100 µM
CC(=O)O[C@H]1[C@H](n2c(Cl)nc3cc(Cl)c(Cl)cc32)OC[C@H]1OC(C)=O	41 µM
[N-]=[N+]=NC(CBr)c1cn(CCC(CO)CO)c(=O)[nH]c1=O	>270 µM
CC(=O)OCCOCn1ccc2c(Cl)nc(Cl)nc21	100 µM
Nc1ncnc2c1ncn2[C@H]1C[C@H](O)[C@]2(CO)C[C@H]12	>100 µg/mL
CC(=O)N1CCN(Cc2ccc(Oc3ccc(Cl)cc3O)s2)CC1	>10 µM
Nc1ncc(I)c2c1ncn2[C@@H]1C[C@H](O)[C@@H](O)[C@H]1O	219 µM
CCCCCOc1nc(N)nc2c1ncn2/C=C1/C[C@@H]1CO	178 µM
O=S(=O)(c1ccc(Oc2ccc(Cl)cc2O)cc1)N1CCCC1	>10 µM
Nc1ncnc2c1ncn2[C@H]1C[C@]12C[C@@H]2CO	>100 µM
Cn1cc(C(=O)Nc2ccc(Cl)cc2O)c(C(F)(F)F)n1	>10 µM
O=C(NCc1ccc(Cl)cc1)c1c[nH]c2c(F)cc(CCCO)cc2c1=O	>50 µM
COc1nc(N)nc2c1ncn2/C=C1/C[C@H]1CO	>404 µM
CC(=O)N1CCN(C(=O)c2ccc(Oc3ccc(Cl)cc3O)o2)CC1	>10 µM
Cc1cn(COC(CO)CO)c2ncnc(N)c12	>100 µM
COC(=O)[C@H](C)NP(=O)(OCC1C/C1=C/n1cnc2c(N)ncnc21)Oc1ccccc1	4.3 µM
COC(=O)C(C)NP(=O)(OC[C@@H]1C/C1=C\n1cc(C)c(=O)[nH]c1=O)Oc1ccccc1	>300 µM
CCCC(=O)OCC(COC(=O)CCC)OCn1cnc2c(=O)[nH]c(N)nc21	>100 µg/mL
CN(C)c1c(C=O)c2cc(Cl)c(Cl)cc2n1[C@@H]1O[C@H](CO)[C@@H](O)[C@H]1O	32 µM
Nc1ncnc2c1ncn2[C@H]1C[C@]12C[C@H]2CO	>100 µM
Nc1nc(NCC2CC2)c2ncn(/C=C3/C[C@@H]3CO)c2n1	>349 µM
CCCCCCCCCCCCCCO[C@H]1O[C@H](COP(=O)(O)C(=O)O)[C@@H](O)[C@H](O)[C@H]1O	426 µM
O=C(NCc1ccc(Cl)cc1)c1c[nH]c2c(F)cccc2c1=O	>50 µM
CCCCCCCCCCCCOCCCOP1(=O)CO[C@@H](Cn2ccc(N)nc2=O)CO1	63 µM
CC(=O)N1CCN(c2ccc(Oc3ccc(Cl)cc3O)cc2)CC1	>10 µM
CN[C@H]1C[C@@H](n2cnc3c(N)ncnc32)[C@H](O)[C@@H]1O	>100 µg/mL
Nc1nc2ncn(/C=C3/C(F)C3(CO)CO)c2c(=O)[nH]1	197 µM
Nc1ncnc2c1c(I)cn2COCCO	100 µM
Nc1ncnc2c1ncn2[C@H]1C[C@@]12C[C@@H]2CO	>100 µM
COC(=O)[C@H](C)NP(=O)(OC[C@@H]1C[C@]12C[C@@H]2n1cnc2c(N)ncnc21)Oc1ccccc1	100 µM
O=c1[nH]c(=O)n([C@H]2C[C@H](O)[C@@]3(CO)CC23)cc1I	>200 µM
CN1CCN(c2ccc(Oc3ccc(Cl)cc3O)cc2)CC1	>10 µM
CCCCCCCC/C=C\CCCCCCCOCCOP1(=O)CO[C@@H](Cn2ccc(N)nc2=O)CO1	34 µM
CC(C)Nc1nc2cc(Cl)c(Cl)cc2n1[C@H]1O[C@@H](CO)[C@H](O)[C@@H]1O	>100 µM
Nc1ncnc2c1ncn2[C@H]1C[C@@]12C[C@H]2CO	>100 µM
O[C@@H]1[C@H](O)[C@H](O)CO[C@H]1n1c(Br)nc2cc(Cl)c(Cl)cc21	130 µM
O=Cc1c(Cl)n([C@@H]2O[C@H](CO)[C@@H](O)[C@H]2O)c2cc(Cl)c(Cl)cc12	45 µM
Nc1nc2c(ncn2COCCCP(=O)([O-])O)c(=O)[nH]1	>100 µM
Cc1cn([C@@H]2C[C@H](CO)[C@@H](O)C2)c(=O)[nH]c1=O	>10 µg/mL
O=c1[nH]c(=O)n([C@H]2C[C@H](O)[C@@H](CO)O2)cc1C(O)C(Br)I	>210 µM
CCCCNc1c(C#N)c2cc(Cl)c(Cl)cc2n1[C@@H]1O[C@H](CO)[C@@H](O)[C@H]1O	32 µM
CCCCCCCCCCCCCCO[C@H]1O[C@H](CO)[C@@H](O)[C@H](O)[C@H]1O	264 µM
O=C(NCc1ccc(Cl)cc1)c1c[nH]c2ccc(C#CCO)cc2c1=O	75 µM
CCCCCCCC/C=C/CCCCCCCCO[C@H]1O[C@H](COP(=O)(O)C(=O)O)[C@@H](O)[C@H](O)[C@H]1O	519 µM
OC[C@H]1O[C@@H](n2c(Br)nc3cc(Cl)c(Cl)cc32)[C@H](O)[C@@H]1O	190 µM
COCCOCn1cc(C(N)=S)c2c(N)ncnc21	≥100 µM
Nc1nc(N)c2ncn(COCCCP(=O)(O)O)c2n1	>300 µM
OC[C@H]1O[C@@H](c2c(Cl)[nH]c3cc(Cl)c(Cl)cc23)[C@H](O)[C@@H]1O	>100 µM
Oc1cc(Cl)ccc1Oc1ccc2ncccc2c1	>10 µM
CCCCCCCC/C=C\CCCCCCCOCCCOP1(=O)CO[C@@H](Cn2ccc(N)nc2=O)CO1	46 µM
COC(=O)C(Cc1c[nH]c2ccccc12)NP(=O)(O)OCC1C/C1=C/n1cnc2c(N)ncnc21	>100 µM
COC(c1cn([C@H]2C[C@H](O)[C@@H](CO)O2)c(=O)[nH]c1=O)C(Cl)Cl	>282 µM
CN1CCN(n2cc(C(=O)NCc3ccc(Cl)cc3)c(=O)c3cc(CN4CCOCC4)ccc32)CC1	44.8 µM
COC(=O)[C@H](C)NP(=O)(OCC1C/C1=C/n1cnc2c(=O)[nH]c(N)nc21)Oc1ccccc1	>206 µM

A second listing of 10 rows from above:

{"compound": "Nc1ncnc2c1ncn2[C@H]1C[C@@]12C[C@H]2CO", "result": ">100 µM"}
{"compound": "COCCOCn1cc(C(N)=S)c2c(N)ncnc21", "result": "≥100 µM"}
{"compound": "CCCCCCCCCCCCOCCCOP(=O)(O)CO[C@H](CO)Cn1ccc(N)nc1=O", "result": ">190 µM"}
{"compound": "Nc1nc(NCC2CC2)c2ncn(/C=C3/C[C@@H]3CO)c2n1", "result": ">349 µM"}
{"compound": "O[C@@H]1[C@H](O)CO[C@H]1n1c(Br)nc2cc(Cl)c(Cl)cc21", "result": "32 µM"}
{"compound": "Nc1nc2c(ncn2[C@H]2C[C@]23C[C@H]3CO)c(=O)[nH]1", "result": ">100 µM"}
{"compound": "CCc1cn([C@H]2C[C@H](O)[C@@H](CO)O2)c(=O)[nH]c1=O", "result": "81 µM"}
{"compound": "COC(c1cn([C@H]2C[C@H](O)[C@@H](CO)O2)c(=O)[nH]c1=O)C(Cl)I", "result": ">214 µM"}
{"compound": "[N-]=[N+]=NC(CI)c1cn([C@H]2C[C@H](O)[C@@H](CO)O2)c(=O)[nH]c1=O", "result": ">118 µM"}
{"compound": "CC(C)Nc1c(C=O)c2cc(Cl)c(Cl)cc2n1[C@@H]1O[C@H](CO)[C@@H](O)[C@H]1O", "result": "3.2 µM"}